PubChem BioAssay AID504761 | Drosophila RNAi Screening Center, 2011
The screen tested about 22,000 reagents; below is an unselected part of those that have a named target and a result. In the full data, 116 (0.52%) got an active call. 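Calls depend on retest data that are not deposited; infection was ranked per plate without normalising between plates; the unit of the infection score is not given.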 Raw values vary from plate to plate and are shown uncorrected. Entries without a mark were called inactive. Not all columns of the deposit are shown. Reagent sequences are not shown. Not stated in the record: the amount of reagent, the time to read-out.

Test: 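Fly genes whose silencing reduces dengue virus type 2 infection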 (primary screen)
System: D.Mel-2 cells from Drosophila
Reagents: long dsRNA against Drosophila genes
Challenge: infection with dengue virus type 2; dose and infection time not stated
Measured: 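Per well on two replicate plates, imaging gave the percent of cells positive for viral envelope protein, ranked by infection, and a nuclear count of cells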
Direction: infection score: higher = more virus-infected cells; cell count: higher = more cells in the well
Rule for the call: 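Very low infection ranking in both replicate wells (chance probability at most 0.065), then a retest showing infection dropped 1.5-fold or more at p below 0.05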
Meaning of the calls: active = confirmed: knock-down lowers infection; inactive = not picked or not confirmed

{"Gene": "P5cr-2 (GeneID 42106)", "dsRNA": "DRSC15889", "infection score, replicate 1": 5.32, "cell count, replicate 1": 5695}
{"Gene": "CG6428 (GeneID 31351)", "dsRNA": "DRSC18402", "infection score, replicate 1": 3.6, "cell count, replicate 1": 7223}
{"Gene": "CG32026 (GeneID 317829)", "dsRNA": "DRSC08950", "infection score, replicate 1": 4.07, "cell count, replicate 1": 5966}
{"Gene": "CG32026 (GeneID 317829)", "dsRNA": "DRSC27384", "infection score, replicate 1": 19.6, "cell count, replicate 1": 5365}
{"Gene": "CG6168 (GeneID 39273)", "dsRNA": "DRSC10596", "infection score, replicate 1": 3.34, "cell count, replicate 1": 6282}
{"Gene": "CG15812 (GeneID 38379)", "dsRNA": "DRSC08479", "infection score, replicate 1": 0.66, "cell count, replicate 1": 5872}
{"Gene": "mRpL19 (GeneID 41028)", "dsRNA": "DRSC16367", "infection score, replicate 1": 3.77, "cell count, replicate 1": 6158}
{"Gene": "mRpL19 (GeneID 41028)", "dsRNA": "DRSC21618", "infection score, replicate 1": 2.29, "cell count, replicate 1": 5626}
{"Gene": "mRpL19 (GeneID 41028)", "dsRNA": "DRSC26104", "infection score, replicate 1": 8.1, "cell count, replicate 1": 3629}
{"Gene": "luna (GeneID 2768719)", "dsRNA": "DRSC05253", "infection score, replicate 1": 2.51, "cell count, replicate 1": 6102}
{"Gene": "luna (GeneID 2768719)", "dsRNA": "DRSC24992", "infection score, replicate 1": 4.99, "cell count, replicate 1": 6056}
{"Gene": "Tango5 (GeneID 326232)", "dsRNA": "DRSC18023", "infection score, replicate 1": 3.28, "cell count, replicate 1": 6898}
{"Gene": "Tango5 (GeneID 326232)", "dsRNA": "DRSC25500", "infection score, replicate 1": 13.8, "cell count, replicate 1": 4491}
{"Gene": "bun (GeneID 34665)", "dsRNA": "DRSC01255", "infection score, replicate 1": 0.93, "cell count, replicate 1": 6579}
{"Gene": "bun (GeneID 34665)", "dsRNA": "DRSC23041", "infection score, replicate 1": 0.62, "cell count, replicate 1": 6105}
{"Gene": "bun (GeneID 34665)", "dsRNA": "DRSC25816", "infection score, replicate 1": 11.2, "cell count, replicate 1": 6207}

Part of the list above, reduced to “cell count, replicate 1”.
luna (GeneID 2768719) [DRSC05253]	6102
luna (GeneID 2768719) [DRSC24992]	6056
Tango5 (GeneID 326232) [DRSC18023]	6898
